Anti-infective test results gathered from many reports (values: NIAID ChemDB through PubChem).

All rows: growth or infection tests; organism: Hepatitis C virus; cell line: Huh7; method: replicon; read-out: EC50

Neighbouring rows are from separate reports.

structure | result
O=C(Nc1cccc(C2SC(=Nc3cccc(F)c3)N(Cc3ccco3)C2=O)c1)[C@H]1CCCN1C(=O)OCc1ccccc1 | 1–5 µM
O=S(=O)(Cc1ccccc1)N/N=C/c1ccccc1NS(=O)(=O)c1ccc(C(F)(F)F)cc1 | 5–50 µM
CNC(=O)c1c(-c2ccc(F)cc2)oc2cc(N(C)C)c(OC(C)C)cc12 | <1 µM
O=C(Nc1ccc(C2SC3=Nc4ccccc4CN3C2=O)cc1)[C@@H]1CCCN1C(=O)OCc1ccccc1 | 0.1–1 µM
C=CCOc1cc2c(C(=O)NC)c(-c3ccc(F)cc3)oc2cc1N(C)S(C)(=O)=O | <1 µM
O=C(Cc1ccccc1)N/N=C/c1ccccc1OS(=O)(=O)c1ccc(C(F)(F)F)cc1 | <5 µM
CNC(=O)c1c(-c2ccc(F)cc2)oc2ccc(OCc3cccc(C(=O)O)c3)cc12 | >30 µM
COC(=O)/C=C/c1ccc(NC(=O)C2(NC(=O)c3ccc4c(C5CCCCC5)c5n(c4c3)CC(=O)Nc3cccnc3-5)CCCC2)cc1 | 0.01–1 µM
N#Cc1cccc(S(=O)(=O)Oc2ccccc2/C=N/NC(=O)Cc2ccccc2)c1 | >50 µM
O=C1Cn2c(c(C3CCCCC3)c3ccc(C(=O)NS(=O)(=O)N4CCCC4)cc32)-c2ccccc2N1 | 0.01–1 µM
O=S(=O)(N/N=C/c1ccccc1OS(=O)(=O)c1ccc(C(F)(F)F)cc1)c1ccccc1 | 5–50 µM
CN=C1SC(c2ccc(NC(=O)[C@H]3CCCN3C(=O)OCc3ccccc3)cc2)C(=O)N1Cc1ccccn1 | <0.1 µM
CNC(=O)c1c(-c2ccc(F)cc2)oc2cc(N3CCOCC3)c(OCc3noc(-c4c(C)noc4C)n3)cc12 | <10 µM
O=C(O)c1ccc2c(C3CCCCC3)c3c4ccccc4ncn3c2c1 | >10 µM
CNC(=O)c1c(-c2ccc(F)cc2)oc2cc(-c3nnc(C)o3)c(OC)cc12 | <10 µM
COc1ccc2c(c1)C=C(C(=O)N1CCOCC1)Cn1c-2c(C2CCCCC2)c2ccc(C(=O)NS(=O)(=O)N(C)C)cc21 | 0.01–1 µM
CCc1ccc(S(=O)(=O)N/N=C/c2ccccc2OS(=O)(=O)c2ccc(C(F)(F)F)cc2)cc1 | 5–50 µM
CNC(=O)c1c(-c2ccc(F)cc2)oc2c(C)cc(OC)cc12 | <10 µM
CN(C)S(=O)(=O)NC(=O)c1ccc2c(C3CCCCC3)c3n(c2c1)CC=Cc1ncccc1-3 | 1–10 µM
CNC(=O)c1c(-c2ccc(C)cc2)oc2ccc(Cl)cc12 | <10 µM
C[C@@H](NC(=O)OCc1ccccc1)C(=O)Nc1ccc(C2SC(=Nc3cccnc3)N(Cc3cccc(F)c3)C2=O)cc1 | <0.1 µM
CC(C)N(C(=O)C1=Cc2ccccc2-c2c(C3CCCCC3)c3ccc(C(=O)NS(=O)(=O)N(C)C)cc3n2C1)C(C)C | 0.01–1 µM

A second listing of 2 rows from above:

structure	result
O=C(Nc1ccc(C2SC3=Nc4ccccc4CN3C2=O)cc1)[C@@H]1CCCN1C(=O)OCc1ccccc1	0.1–1 µM
O=S(=O)(N/N=C/c1ccccc1OS(=O)(=O)c1ccc(C(F)(F)F)cc1)c1ccccc1	5–50 µM

a–b is a range or a potency band. ECn is the concentration giving n% inhibition of infection, replication or growth.